pIC50: −log10 of the molar value. Read-outs that look alike come from different tables or passages of the source.
Legend:
[1] = test system: MAGE2.157-, HBV Pol.455- and HIV Pol.476-specific CTL lines; test: IFNγ release (in situ capture ELISA) from murine CTL lines with peptide-pulsed .221A2.1 APC; type: cell-based, HLA-A2.1/K^bxs transgenic mice
HLA-A2.1 (A*0201) = HLA-A2.1 (A*0201) (Homo sapiens, UniProt P04439, D140Y/D185E/D98H/E176V/E277Q/G131W/G231S/I119V/I121R/I166T/I218V/L300P/L318F/N151K/N90K/P208A/P217A/Q86G/Q94H/R138H/R169H/T345S); test: HLA-A2.1 peptide binding, competition with radiolabeled HBV Core.18 standard peptide; settings: for pIC50: read-out: A*0201 binding (IC50)
HLA-A2.1 (human) = HLA-A2.1 (human) (UniProt P04439)

Row | Molecule | heteroclitic activity in analog screening [1] | HLA-A2.1 binding affinity compared to wildtype peptide (HLA-A2.1 (A*0201)) | pIC50 (HLA-A2.1 (A*0201); purified HLA-A2.1) | pIC50 (HLA-A2.1 (human)) | pIC50 (HLA-A2.1 (A*0201))
1 | CC[C@H](C)[C@H](N)C(=O)N[C@@H](CC(C)C)C(=O)N[C@@H](CC(C)C)C(=O)N[C@@H](CCC(=O)O)C(=O)N1CCC[C@H]1C(=O)N[C@H](C(=O)N[C@@H](Cc1c[nH]cn1)C(=O)NCC(=O)N[C@H](C(=O)O)C(C)C)C(C)C [HIV Pol.476 L3] | heteroclitic activity |  |  |  | 
2 | CC[C@H](C)[C@H](NC(=O)CNC(=O)[C@H](Cc1ccccc1)NC(=O)[C@H](Cc1ccccc1)NC(=O)[C@H](CC(C)C)NC(=O)[C@H](CCC(N)=O)NC(=O)[C@H](CC(C)C)NC(=O)[C@@H](N)Cc1ccc(O)cc1)C(=O)N[C@@H](CCC(=O)O)C(=O)N[C@H](C(=O)O)C(C)C [MAGE2.157 F5] |  | lower affinity | 6.67 |  | 
3 | CC[C@H](C)[C@H](NC(=O)[C@H](CCC(=O)O)NC(=O)[C@H](C)NC(=O)[C@@H](NC(=O)[C@@H](N)CCCCN)C(C)C)C(=O)N[C@H](C(=O)N[C@@H](Cc1c[nH]cn1)C(=O)N[C@@H](Cc1ccccc1)C(=O)N[C@@H](CC(C)C)C(=O)O)C(C)C [MAGE3.112 I5] |  | little or no change in HLA-A2.1 binding capacity | 7.18 |  | 
4 | CC[C@H](C)[C@H](N)C(=O)N[C@@H](CCSC)C(=O)N[C@@H](CCSC)C(=O)NCC(=O)N[C@H](C(=O)N[C@@H](CC(C)C)C(=O)N[C@H](C(=O)NCC(=O)N[C@H](C(=O)O)C(C)C)C(C)C)C(C)C [CEA.691 M3] |  | little or no change in HLA-A2.1 binding capacity | 7.57 |  | 
5 | CC[C@H](C)[C@H](N)C(=O)N[C@@H](CCSC)C(=O)N[C@H](C(=O)NCC(=O)N[C@@H](Cc1c[nH]cn1)C(=O)N[C@@H](CC(C)C)C(=O)N[C@H](C(=O)NCC(=O)N[C@H](C(=O)O)C(C)C)C(C)C)[C@@H](C)CC [CEA.691 H5] |  | little or no change in HLA-A2.1 binding capacity |  |  | 
6 | CC[C@H](C)[C@H](NC(=O)CNC(=O)[C@H](Cc1ccccc1)NC(=O)[C@@H](NC(=O)[C@H](CC(C)C)NC(=O)[C@H](CCC(N)=O)NC(=O)[C@H](CC(C)C)NC(=O)[C@@H](N)Cc1ccc(O)cc1)[C@@H](C)CC)C(=O)N[C@@H](CCC(=O)O)C(=O)N[C@H](C(=O)O)C(C)C [MAGE2.157 I5] |  | lower affinity | 6.32 |  | 
7 | HIV Pol.476 L3 (peptide) |  |  |  | 7.20 | 
8 | CC(C)C[C@H](NC(=O)[C@H](CCCNC(=N)N)NC(=O)[C@@H]1CCCN1C(=O)[C@@H](NC(=O)[C@H](Cc1ccc(O)cc1)NC(=O)[C@H](CCCNC(=N)N)NC(=O)[C@H](CO)NC(=O)[C@H](CC(C)C)NC(=O)CN)C(C)C)C(=O)O [HBV Pol.455 P7] | heteroclitic | little or no change in HLA-A2.1 binding capacity |  |  | 6.57
9 | CC[C@H](C)[C@H](N)C(=O)N[C@@H](CC(C)C)C(=O)N[C@@H](Cc1c[nH]cn1)C(=O)N[C@@H](CCC(=O)O)C(=O)N1CCC[C@H]1C(=O)N[C@H](C(=O)N[C@@H](Cc1c[nH]cn1)C(=O)NCC(=O)N[C@H](C(=O)O)C(C)C)C(C)C [HIV Pol.476 H3] | heteroclitic activity | four-fold or higher affinity than wildtype peptide | 7.11 |  | 
